Results of unrelated studies side by side (data: NIAID ChemDB).

All rows: growth or infection tests; species: Hepatitis C virus; cell line: Huh7; read by: replicon; measure: EC50

Lines come from different laboratories, so protocols vary. Two numbers with a dash give a range or band. ECn is the concentration giving n% inhibition of infection, replication or growth.

SMILES | value
O=C(Cc1cccs1)N/N=C/c1ccccc1OS(=O)(=O)c1ccc(C(F)(F)F)cc1 | <5 µM
C[C@@H](NC(=O)OCc1ccccc1)C(=O)Nc1ccc(C2SC(=Nc3cccc(F)c3)N(CC3CCS(=O)(=O)C3)C2=O)cc1 | 1–5 µM
COC(=O)c1ccc2c(C3CCCCC3)c3n(c2c1)CC(=O)N(CCN(C)C)c1ccccc1-3 | 1–10 µM
COc1cccc(CC(=O)N/N=C/c2c(C)cccc2OS(=O)(=O)c2ccc(C(F)(F)F)cc2)c1 | <5 µM
COC(=O)/C=C/c1ccc(NC(=O)C2(NC(=O)c3ccc4c(C5CCCCC5)c5c6ccccc6ncn5c4c3)CCCC2)cc1 | 1–10 µM
O=C(Nc1ccc(C2SC(=Nc3ccc(N4CCOCC4)cc3)N(Cc3ccccn3)C2=O)cc1)[C@H]1CCCN1C(=O)C(F)c1ccccc1 | <0.1 µM
CNC(=O)c1c(-c2ccc(F)cc2)oc2cc(C(=O)O)c(OC(C)C)cc12 | <10 µM
O=C(CCc1ccccc1)N/N=C/c1ccccc1OS(=O)(=O)c1ccc(C(F)(F)F)cc1 | <5 µM
CNC(=O)c1c(-c2ccc(F)cc2)oc2cc(N(CS(C)(=O)=O)c3cscn3)c(OC)cc12 | <1 µM
O=C(Nc1ccc(C2SC(=Nc3cccc(F)c3)N(Cc3cccnc3)C2=O)cc1)[C@H]1CCCN1C(=O)OCc1ccccc1 | <0.1 µM
COC(=O)c1ccc2c(C3CCCCC3)c3n(c2c1)CC(C(=O)N1CCOCC1)=Cc1cccnc1-3 | 1–10 µM
CNC(=O)c1c(-c2ccc(C(F)(F)F)cc2)oc2ccc(OC)cc12 | <10 µM
O=C(O)/C=C/c1ccc(NC(=O)C2(NC(=O)c3ccc4c(C5CCCCC5)c5n(c4c3)CCOc3ccccc3-5)CCCC2)cc1 | 0.01–1 µM
CNC(=O)c1c(-c2ccccc2)oc2cc(OC)c(OC)cc12 | <1 µM
COC(=O)c1ccc2c(C3CCCCC3)c3n(c2c1)CC(C(=O)N(C)C)=Cc1ccccc1-3 | 0.01–1 µM
COc1cccc(CC(=O)N/N=C/c2cc(F)ccc2OS(=O)(=O)c2ccc(C)cc2)c1 | <5 µM
CNC(=O)c1c(-c2ccccc2)oc2ccc(C#N)cc12 | <30 µM
O=C(Cc1cccc(-n2cccc2)c1)N/N=C/c1ccccc1OS(=O)(=O)c1ccc(C(F)(F)F)cc1 | >50 µM
CNC(=O)c1c(-c2ccc(F)cc2)oc2cc(N(CCO)S(C)(=O)=O)c(OC)cc12 | <1 µM
CC(C)(C)OC(=O)N1CCn2c(c(C3CCCCC3)c3ccc(C(=O)O)cc32)-c2ccccc21 | 1–10 µM
CNC(=O)c1c(-c2ccc(F)cc2)oc2cc(C)c(OC(C)C(=O)O)cc12 | >30 µM
C[C@@H](NC(=O)Cc1ccccc1)C(=O)Nc1ccc(C2SC(=Nc3cccc(F)c3)N(c3ccccn3)C2=O)cc1 | <0.1 µM
CCOc1cc2c(C(=O)NC)c(-c3ccc(F)cc3)oc2cc1N1CCOCC1 | <10 µM
O=C(O)c1ccc(-c2cnc(NC(=O)C3(NC(=O)c4ccc5c(C6CCCCC6)c6n(c5c4)CC=Cc4ccccc4-6)CCCC3)s2)cc1 | 0.01–1 µM

For reference, 2 entries again:

SMILES,value
COc1cccc(CC(=O)N/N=C/c2c(C)cccc2OS(=O)(=O)c2ccc(C(F)(F)F)cc2)c1,<5 µM
CNC(=O)c1c(-c2ccc(C(F)(F)F)cc2)oc2ccc(OC)cc12,<10 µM